Pooled drug test results. Numbers come from NIAID ChemDB, via PubChem.

All rows: tests in culture; organism: Mycobacterium tuberculosis

MIC bound: limit read from a one-dose screen. Inhibition is in % at the dose shown (toxicity tests: loss of growth or viability). Conditions beyond the fields shown may differ between rows. ECn: concentration that inhibits the pathogen or its effect by n%. An empty or dashed field is not shown.

smiles,read-out,conditions,read by,dose,strain,changes,result
O=C(Oc1ccc(Cl)cc1C(=O)Nc1ccc(Br)cc1)c1cnccn1,MIC,14 d,,,H37Rv 331/88,,2 µM
COc1ccc2c(c1OC)C1=NCCc3cc4c(cc3C1(OC)C2=O)OCO4,inhibition,,BACTEC,12.5 µg/mL,H37Rv,,30%
CCOC(=O)c1ccc2nc(-c3ccc(O)cc3O)[nH]c2c1,MIC,,resazurin / fluorescence,,H37Rv,,>100 µM
CCN(CC)CCNc1ccc(CO)c2oc3ccc(OS(=O)(=O)c4ccc(C)cc4)cc3c(=O)c12,MIC,,BACTEC,,H37Rv,,6.25 µg/mL
O=c1cc(-c2ccc(O)c(-c3c(O)cc(O)c4c(=O)cc(-c5ccc(O)cc5)oc34)c2)oc2cc(O)cc(O)c12,EC50,,,,H37Rv,,>12.5 µg/mL
COc1ccc2cc([N+](=O)[O-])c3ccc(=O)oc3c2c1,MIC,,resazurin,,H37RvEr,,25 µg/mL
CO[C@H]1/C=C/O[C@@]2(C)Oc3c(C)c(O)c4c(=O)c(c5oc6cc(N7CCN(CC(C)C)CC7)cc(=O)c6nc5c4c3=C2O)NC(=O)/C(C)=C\C=C\[C@H](C)[C@H](O)[C@@H](C)[C@@H](O)[C@@H](C)[C@H](OC(C)=O)[C@@H]1C,MBC,,,,2230 (rifampicin-resistant),,0.25 µg/mL
CCOC(=O)c1c(NC(=O)c2c(F)c(F)c(F)c(F)c2F)sc2c1CCNC2=O,EC50,,turbidity,,H37Rv,rpoB S522L mutant,0.35 µM
CC(C)OC(=O)c1cc(NC(=S)OC(C)C)ccc1Cl,MIC bound,,BACTEC,,H37Rv,,≤12.5 µg/mL
CCOC(=O)c1ccc2c(c1)nc(-c1ccccc1)n2CCN1CCCC1=O,EC50,,resazurin / fluorescence,,H37Rv,,48.97 µM
O=C(NCC(c1cccs1)N1CCCCC1)c1cccs1,MIC,,resazurin,,Clinical isolate,,16 µg/mL
CC[C@@H](CO)NCCN[C@@H](CC)CO,MIC,,,,90-0201 (DRUG-SUS),,1 µg/mL
CC(=O)c1csc(NC(=O)C2C3CC4CC(C3)CC2C4)n1,MIC,,visual reading,,H37Rv,,>20 µM
CCN1CCc2c(sc(NC(=O)c3c(F)c(F)c(F)c(F)c3F)c2C(N)=O)C1,inhibition,,turbidity,14 µM,ATCC 35822 INH-R2 isoniazid-resistant,,90%
O=C1Oc2cc3c(c4cccc1c24)O[C@@H](c1ccccc1)C(c1ccccc1)[C@H]3c1ccc(Cl)cc1,MIC bound,,BACTEC,,H37Rv,,>12.5 µg/mL
CCCCCCCCCN1C(=O)CC(CC)C1=O,MIC,,,,H37Ra,,≤20 µg/mL
c1ccc2c(c1)nc1n2CC2(CO1)COc1nc3ccccc3n1C2,inhibition,,,6.25 µg/mL,H37Rv,,4%
CO/C(=N\N=C\c1ccc(C(F)(F)F)cc1)c1ccncc1,MIC,,,,H37Rv,,>20 µg/mL
CO[C@H]1/C=C/O[C@@]2(C)Oc3c(C)c(O)c4c(O)c(c5c(c4c3C2=O)NC2(CCN(CC(C)C)CC2)N=5)=NC(=O)/C(C)=C\C=C\[C@H](C)[C@H](O)[C@@H](C)[C@@H](O)[C@@H](C)[C@H](OC(C)=O)[C@@H]1C,MIC,,,,MDR-3948 (MDR),,>1.6 µg/mL
NNC(=O)c1ccncc1,MIC,,,,90-0216 (DRUG-SUS),,0.02 µg/mL
CCCCSC1=C(C#N)C(=O)NC(C)S1,MIC,,resazurin,,18b,,8 µg/mL
O=C(Cc1cccs1)N/N=C/c1cccc(O)c1,MIC,,resazurin,,H37Rv (ATCC 27294),,>100 µg/mL
Nc1ncccc1/C=C/C(=O)c1ccc2c(ccc3ccccc32)c1,EC50,,,,,,<12.5 µg/mL
CCN(CCNc1ccc(C)c2sc3cc(Cl)ccc3c(=O)c12)CC(C)O,MIC,,BACTEC,,H37Rv,,≥12.5 µg/mL
O=C(Cc1cccs1)N/N=C/c1cc([N+](=O)[O-])ccc1O,MIC,,resazurin,,H37Rv (ATCC 27294),,81.9 µM
COC(=O)C1=NOC2(CC(=O)N(c3ccc(F)cc3)C2=O)C1,MIC,,resazurin,,Clinical isolate,,16 µg/mL
CO/C(=N\N=C\c1ccc(OC)cc1OC)c1ccncc1,MIC,,,,6 PI,,>20 µg/mL
CCN1CCc2c(sc(NC(=O)c3c(F)c(F)c(F)c(F)c3F)c2C(=O)NC)C1,EC50,,turbidity,,ATCC 35822,,1.9 µM
CCOC(=O)c1ccc2nc(-c3ccc4c(c3)OCO4)[nH]c2c1,EC90,,resazurin / fluorescence,,H37Rv,,>100 µM
O=C(Oc1ccc(Cl)cc1C(=O)Nc1cccc(C(F)(F)F)c1)c1cnccn1,MIC,21 d,,,multidrug resistant 53/2009,,2 µM
CCCCNC(=O)Oc1ccc2c(c1)OC(=O)C2,MIC,,resazurin,,18b,,8 µg/mL
O=C1CC(c2ccc(Br)cc2)Oc2ccccc21,inhibition,,,12.5 µg/mL,,,26%
CCOC(=O)c1sc(N)nc1C(F)(F)F,MIC bound,,BACTEC,,H37Rv,,>6.25 µg/mL
CCCCCCCCCNC1CC(=O)N(CCCCCCCCC)C1=O,MIC,,,,Clinical isolate (isoniazid-resistant),,≤20 µg/mL
O=C(NNc1ccccc1)C(O)C(O)C(O)C(O)CO,MIC bound,,BACTEC,,H37Rv,,>12.5 µg/mL
NC(=O)c1cnccn1,MIC,21 d,,,H37Rv 331/88,,>1000 µM
O=C1c2ccccc2-c2nsc3c(C(Br)Br)ccc1c23,MIC,,resazurin,,H37Rv,,6.25 µg/mL
CCOC(=O)c1ccc2c(c1)nc(-c1ccc(OC(F)(F)F)cc1)n2CCN1CCCC1=O,MIC,,resazurin / fluorescence,,H37Rv,,>100 µM
CC(=O)Nc1ccc(S(=O)(=O)N/N=C/c2ccco2)cc1,MIC bound,,BACTEC,,H37Rv,,>12.5 µg/mL
Cc1cccc(C)c1Nc1nc(-c2ccncn2)cs1,MIC,,visual reading,,H37Rv,,20 µM
CCOC(=O)c1ccc2c(c1)nc(-c1ccc3c(c1)OCO3)n2CCN1CCCOC1,MIC,,resazurin / fluorescence,,H37Rv,,>100 µM
Cc1cccc(C)c1Nc1nc(-c2ccn[nH]2)cs1,MIC,,visual reading,,H37Rv,,>20 µM
COc1ccc2nonc2c1,MIC bound,,BACTEC,,H37Rv,,>12.5 µg/mL
CCOC(=O)c1ccc2nc(-c3ccc(N4CCOCC4)cc3)[nH]c2c1,EC90,,resazurin / fluorescence,,H37Rv,,>100 µM
CCCCCCCCCCN1C(=O)C=CC1=O,MIC,,,,H37Rv,,≤20 µg/mL
O=C(Oc1cc(Cl)ccc1C(=O)Nc1ccc(C(F)(F)F)cc1)c1cnccn1,MIC,21 d,,,multidrug resistant 9449/2006,,0.25 µM
COc1cc(O)c(Cc2ccccc2O)c(O)c1C(=O)CCc1ccccc1,MIC bound,,BACTEC,,H37Rv,,>12.5 µg/mL
COc1ccc(/C=C/C(=O)c2cccc(F)c2O)cc1,inhibition,,,12.5 µg/mL,,,45%
COc1cc(OC)c2cc([N+](=O)[O-])c3ccc(=O)oc3c2c1,MIC,,resazurin,,SIN452,,25 µg/mL
CC1COc2c(N3CCN(C)CC3)c(F)cc3c(=O)c(C(=O)O)cn1c23,MIC,,,,H37Rv,,0.75 µg/mL
CO/C(=N\N=C\c1cc(OC)ccc1OC)c1ccncc1,MIC,,,,6 PI,,>20 µg/mL
O=C(CCn1[nH]c(=O)c(Cl)c(Cl)c1=O)NNC(=O)C[n+]1ccccc1.[Cl-],inhibition,,BACTEC,12.5 µg/mL,H37Rv,,7%
O=C(Oc1ccc(Cl)cc1C(=O)Nc1ccc(C(F)(F)F)cc1)c1cnccn1,MIC,14 d,,,multidrug resistant 7357/1998,,0.25 µM
CC(=O)NC1=NN(C(C)=O)C2(S1)C(=O)N(C)c1ccc(F)cc12,MIC,,resazurin,,Clinical isolate,,8 µg/mL
CCNC(=O)c1c(NC(=O)c2c(F)c(F)c(F)c(F)c2F)sc2c1CCN(CC)C2,EC90,,turbidity,,H37Rv,gyrA mutant (D94N),11 µM
CCCCCCCCCN1C(=O)CC(SCCNC(=O)c2ccc([N+](=O)[O-])cc2)C1=O,MIC,,,,H37Ra,,≤20 µg/mL
COc1ccc2c(c1)/C(=N/OC(=O)c1ccc(OC)c([N+](=O)[O-])c1)CCC2,MIC,,resazurin,,18b,,8 µg/mL
CC(C)N=c1cc2n(-c3ccc(Cl)cc3)c3ccccc3nc-2cc1Nc1ccc(Cl)cc1,MIC,,,,90-0201 (DRUG-SUS),,0.2 µg/mL
COc1cccc(NC2=CC(=O)C(=O)c3ccccc32)c1,MIC bound,,resazurin,,H37Rv,,>6.25 µg/mL
COc1ccc(CCC2CCc3ccccc3N2C)cc1OC,MIC,,,,MT3,,>322 µg/mL
N#Cc1nc(COCCOCc2ccccc2)oc1N,inhibition,,BACTEC,12.5 µg/mL,H37Rv,,27%
CO/C(=N\N=C\c1ccc(F)cc1)c1ccncc1,MIC,,,,16PI,,>20 µg/mL
Nc1ccc(C(=O)O)c(O)c1,MIC,21 d,,,H37Rv 331/88,,62.5 µM
C1CN(P2(N3CC3)=NP(N3CC3)(N3CC3)=NP(N3CC3)(N3CC3)=N2)CCO1,MIC,,BACTEC,,H37Rv,,≥128 µg/mL
CCN1CCc2c(sc(NC(=O)c3c(F)c(F)c(F)c(F)c3F)c2C#N)C1,EC50,,turbidity,,H37Rv,rpoB S522L mutant,7.2 µM
Fc1cccc(F)c1Nc1nc(-c2ccccn2)cs1,MIC,,visual reading,,H37Rv,,2.1 µM
NC(=N\N=C\c1cc(Cl)ccc1O)/C(N)=N/N=C/c1cc(Cl)ccc1O,inhibition,,BACTEC,12.5 µg/mL,H37Rv,,5%
CCCCCCCCCN1C(=O)CCC1=O,MIC,,,,H37Rv,,≤20 µg/mL
CCOC(=O)c1c(NC(=O)c2c(F)c(F)c(F)c(F)c2F)sc2c1CCOC2,EC90,,turbidity,,H37Rv,katG Y155 truncation mutant,0.4 µM
COC(=O)C1c2ccc(OC)c(OC)c2C(=O)N2CCc3cc(OC)c(OC)cc3C12,MIC bound,,resazurin,,H37Rv,,>6.25 µg/mL
NNC(=O)c1ccncc1,MIC,,,,Isolate J,,0.062 µg/mL
CCCCCCCCCN1C(=O)CC(SCCNC(=O)C2CCCCC2)C1=O,MIC,,,,Clinical isolate (isoniazid-resistant),,≤20 µg/mL
C=C1CC[C@@H]2[C@](C)(CO)[C@H](O)CC[C@@]2(C)[C@@H]1C/C=C1/C(=O)OC[C@H]1O,MIC bound,,BACTEC,,H37Rv,,>12.5 µg/mL
O=C(Cc1cccs1)N/N=C/c1ccc(Cl)cc1,MIC,,resazurin,,H37Rv (ATCC 27294),,>100 µg/mL
CCCCCCCCCN1C(=O)CC(SCCNC(=O)c2ccc(C(C)(C)C)cc2)C1=O,MIC,,,,Clinical isolate (isoniazid-resistant),,≤20 µg/mL
COCc1cc(C)nc(N/N=C/c2cc(OC)ccc2OC)c1C#N,MIC,,resazurin,,18b,,16 µg/mL
CCOC(=O)c1ccc2nc(-c3ccc([N+](=O)[O-])cc3)[nH]c2c1,EC50,,resazurin / fluorescence,,H37Rv,,>100 µM
CCCCCCCCCN1C(=O)CC(NCCCCCCC)C1=O,MIC,,,,Clinical isolate (isoniazid-resistant),,≤20 µg/mL
O=C(NNC(=O)c1ccccn1)c1ccccc1,inhibition,,resazurin,6.25 µg/mL,H37Rv,,21%
O=C(Cc1cccs1)N/N=C/c1cccc([N+](=O)[O-])c1,MIC,,resazurin,,H37Rv (ATCC 27294),,>100 µg/mL
CC[C@H]1OC(=O)[C@H](C)[C@@H](O[C@H]2C[C@@](C)(OC)[C@@H](O)[C@H](C)O2)[C@H](C)[C@@H](O[C@@H]2O[C@H](C)C[C@H](N(C)C)[C@H]2O)[C@](C)(OC)C[C@@H](C)C(=O)[C@H](C)[C@@H](O)[C@]1(C)O,MIC,,,,MDR-2 (MDR),,>8 µg/mL
CCOC(=O)c1ccc2nc(-c3ccc(C(F)(F)F)cc3)[nH]c2c1,MIC,,resazurin / fluorescence,,H37Rv,,>100 µM
CCCCCCCCN1C(=O)CC(C)(SCC(N)C(=O)O)C1=O,MIC,,,,Clinical isolate (isoniazid-resistant),,≤20 µg/mL
O=C(Nc1nc(-c2ccccn2)cs1)c1cc([N+](=O)[O-])cc([N+](=O)[O-])c1,MIC,,visual reading,,H37Rv,,>20 µM
Nc1sc2c(c1C(=O)Nc1ccccc1)CCCC2,MIC,,resazurin,,H37Rv,,>100 µg/mL